# Tested on: HIV Ba-L
# Test: Prevention of HIV Ba-L infection in MO-DC/CD4(+) T cell co-cultures (ELISA, secondary culture, PCR)
# Assay type: cell-based
# Description: For experiments with CEM T cells, we used the lymphotropic SI/X4 HIV strain HTLV-IIIB, originally obtained from R. C. Gallo and M. Popovic (NIH, Bethesda, Md.). For experiments with monocyte-derived dendritic cells (MO-DC), the monotropic NSI/R5 HIV strain Ba-L, kindly provided by the NIH AIDS Research and Reference Reagent Program (Rockville, Md) was used. Ba-L stocks were grown and tittered on PHA/IL-2-stimulated peripheral blood mononuclear cells (PBMC) in complete medium, containing RPMI-1640 (Bio-Whittaker, Verviers, Belgium) and 10% bovine calf serum (Hyclone, Utah, US) (Peden K. Virological and Molecular Genetic Techniques for Studies of Established HIV Isolates. 1995, 21-45). The supernatant of these cultures were directly used as cell-free virus to infect MO-DC. To prepare cell-associated HIV Ba-L, non-stimulated PBMC (2×10^6 cells/ml) were incubated overnight with 10^−2 MOI (=multiplicity of infection) of HIV Ba-L in complete medium. Afterwards, cells were extensively washed, frozen in liquid nitrogen and thawed on the day of infection.
# HIV antigen was detected using an in-house developed ELISA assay, of which the characteristics have been described (Beirnaert E, Willems B, Peeters M, Bouckaert A, Heyndrickx L, Zhong P et al. Design and Evaluation of an in-House HIV-1 (Group M and O), SIVmnd and SIVcpz Antigen Capture Assay. J Virol Methods 1998, 73: 65-70). The lower detection limit is about 200 pg/ml and the upper limit is about 25,000 pg/ml, as determined using a standard curve of Ba-L stock dilutions with known p24 content. The 50% Effective Concentration (EC50) was calculated by plotting HIV Ag concentration against drug concentration, followed by regression analysis on the linear part of the curve,
# Cell-free HIV Ba-L was pre-incubated with a serial dilution of drug, ranging from 10,000 to 0.1 nM (final concentration), for 1 hour at 37° C. MO-DC were infected with drug-treated HIV at a multiplicity of infection (MOI) of 10^−3. After 2 hours (at 37° C.), MO-DC were washed (6×) and suspended at 4×10^5 cells/ml. 50 μl of MO-DC were dispensed in a 96-well cup, together with 50 μl of autologous CD4(+) T cells (2×10^6 cells/ml) and 100 μl of complete medium or 100 μl of drug (at the same concentration as for the pre-incubation). Half of the culture medium was refreshed twice weekly with complete medium, with or without drug. After 2 weeks of primary culture, supernatants were analysed by ELISA and cells were used for secondary cultures to check viral rescue. […]
# To evaluate the effect of a 24-hours treatment, MO-DC and autologous CD4(+) T cells were suspended in complete medium at 4×10^4, resp. […] After 2 weeks of primary culture, supernatants were analysed by ELISA and cells were used for secondary cultures to check viral rescue. […]
structure (smiles),measurement,setting,value
"Cc1cc(C)c(Nc2ccnc(Nc3ccc(C#N)cc3)n2)c(C)c1 [compound B, 4-[[4-[(2,4,6-trimethylphenyl)amino]-2-pyrimidinyl]amino]benzonitrile]",TI (Therapeutic Index: ISC50/EC50),"24 hours treatment, Cell-associated HIV",395
same,TI (Therapeutic Index: ISC50/EC50),"24 hours treatment, Cell-free HIV",592
same,TI (Therapeutic Index: ISC50/EC50),"Continuous treatment, Cell-associated HIV",">1,515"
same,TI (Therapeutic Index: ISC50/EC50),"Continuous treatment, Cell-free HIV",">15,150"

# Reference: US20200345733A1, “Microbicidal Pyrimidine or Triazine Containing Compounds” (Janssen Sciences Ireland UC, priority 2002, published 2020)
